Experimental data reported in the supplement of paper PMC9931576.
Numbering of substitutions follows the chain as printed. Human monoclonal antibodies against the spike receptor-binding domain (heavy:light variable regions). IC50 against pseudoviruses bearing the spike of naturally observed variants; lower = stronger; >10 µg/ml means not reached at the top dose. No active / inactive call. The stated detection limit is 0.0005 µg/ml; values near or below 0.001 µg/ml lie at the floor of the assay.

B1: BD56-046 (protein)
chain 1: EVQLVESGGRVVRPGGSLRLSCAASGFTFDDYGMSWVRQAPGKGLEWVSGINWNGGRTDYADSVKGRFTISRDNARNSLYLQMNSLRAEDTALYHCARDYCGDDCYSLLVSTDAFDIWGQGTMVTVSS
chain 2: YELTQSLSVSVALGQTARTTCGGNNIGSKNVHWYQQRPGQAPVLVIYNNSNRPSGIPERFSGSNSGNTATLTISRAQAGDEADYYCQVWDGSTVVFGGGTKLTVL
B2: BD56-049 (protein)
chain 1: EEQLLESGGGLVQPGGSLRLSCAASGFTFSSHAMNWVRQAPGKRLEWVSGTTGPGDHTYYADSVKGRFTISRDNSKNTLYLQMSSLRVGDTAVYYCAKVINGNYDSWSGYFDYYYYAMDVWGQGTTVTVSS
chain 2: QSALTQPASVSGSPGQSITIPCTGTSSDVGNFNVVSWYQQHPGAAPKLMIYEVTKRPSGVSVRFSGSKSGNTASLTISGLQAEDEADYYCCSYGGSSSVVFGGGTKLTVL
B3: BD56-054 (protein)
chain 1: EVQLVESGGGFVQPGRSLRLSCVASGFTFDEYAIHWVRQAPGKGLEWVSGVSSNSATIGYADSVKGRFIISRDNAKNSLYLHMNSLRAEDTAFYYCAKDMNAEGPGSSYYHYYGMDVWGHGTTVTVSS
chain 2: QSVLTQPPSASGTPGQRVTISCSGSSSNIGGNTVNWYQQLPGTAPKLLIYSNNQRPSGVPDRFSGSKSGTSASLAISGLQSEDESDYYCAAWDDSLNGQYVFGTGTKVTVL
B4: BD56-055 (protein)
chain 1: EVQLVESGGGLVQPGRSLRLSCAASGLTFDDYAIHWVRQAPGKGLEWVSGVSSNSATIGYADSVKGRFIISRDNPKNSVFLQMNRLRAEDTAIYYCAKDMNGEGPGSSHYNYYGMDVWGQGTTVTVSS
chain 2: B3 chain 2 with G31S, N53D, S85T, Q99H
B5: BD56-074 (protein)
chain 1: EVQLVESGGGLVQPGRSLTLSCAASGFTFDDYAIHWVRQRPGKGLEWVSGISWNGGTIGYVDSVKGRFIISRDNAKNSLYLHMRSLRVEDTALYFCAKAKTRGDSDWPFDTWGQGSLVTVSS
chain 2: SYVLTQPPSVSVAPGKTARITCGGGNIGSKSVHWYQQKPGQAPVLVVFDDSDRPSGIPDRFSGSKSGNTATLTISRVEAGDEADFYCQVWDSSSDLWVFGGGTKVTIL
B6: BD56-076 (protein)
chain 1: QVQLVQSGAEVKKPGSSVKVSCKSSGSTFSSYGHNWVRQAPGQGLEWMGRIIPILNIVNYAQKFQGRVTITADISTNTAYMELGSLRYEDTAVYYCARPADYGDTLGSPNWEFDRAFDIWGQGTMVTVS
chain 2: EIVLTQSPGTLSLSPGERATLSCRASQSVTSSYLAWYQQKPGQAPRLLIYGASSRATGVPDRFSGSGSGTDFTLTISRLEPGDFAVYYCQQLVGSPWTFGQGTKVESK
B7: BD56-077 (protein)
chain 1: QVQLVQSGAEVKKPGSAVKVSCKASGGTSSTSAISWVRQATGQGLEWMGRIIPILGIADYAQRFQGRVTITADKSTSTVYMDLSSLRSEDTAFYYCARDLVDYGSGSYPLYFDSWGQGTLVTVSS
chain 2: DIVMTQSPDSLAVSLGERATISCKSSQSLLYSANNKNYLAWYQQKPGQPPKLLIYWASTRESGVPDRFSGSGSGTDFTLTISSLQAEDVAVYYCQQHYNTITFGPGTKVNIK
B8: BD56-081 (protein)
chain 1: QITLKESGPTLVKPTQTLTLTCSFSGVSLSTRGMGVGWIRQPPGKALEWLALIYWDDDKRYSPSLKSRLSITKDTSKNQVVLTMTNVDRVDTATYYCAHWNYGDYEGSFDYWGQGTLVTVSS
chain 2: SYELTQPPSVSVSPGQTARITCSGDALPKQYAYWYQQKPGQAPLLVIYKDTERPSGIPERFSGSSSGPTVSLTISGVQAEDEADYYCQSADSSYVVFGGGTKLTVL
B9: BD56-083 (protein)
chain 1: QVQMVQSGVEVKRPGASVKVSCRASGYTFTTYGVTWVRQAPGQGLEWMGWISAYNGNTKYAQKFQARVTMTTDSSTSTAHLEVRSLTSDDTAVYYCARWFGELSEPFDYWGQGTLVTVSS
chain 2: DIQLTQSPSSLSASVGDRVTITCRSSQSISRWVNWYQQKPGKAPKLLIYGASSLQSGVPSRFSGSGSGTDFTLTISSLQADDFATYFCQLSDNFVVTFGQGTRLEIK
B10: BD56-086 (protein)
chain 1: EVKLLESGGGLVQPGGSLRLSCAASGFTFSSYALNWVRQAPGKGLEWVSGIGGSGDLAFYADSVKGRFTISRDNSKNTLYLQMNNLRAEDTAVYYCAKDQGGVRYDLLDYWGQGTLVSVSS
chain 2: DVQMTQSPSSLSASVGDRVTISCRASQSISRYLNWYQQKPGKAPKLLIFGASSLQSGVPSRFSGSGSGTDFTLTISSLQPEDFATYYCQQSYITPPLTFGGGTKVEIK
B11: BD56-090 (protein)
chain 1: EVQLVESGGGLVQPGRSLRLSCAASGFTFDDYAIHWVRQAPGKGLEWVSGVSWNSGIIGYADSVKGRFTISRDNAKNSLYLQMNSLRPEDTALYYCAKDMGGDYSFRKYNYGLDVWGQGTTVIVS
chain 2: QSVVTQPPSASGTPGQRVTISCSGSNSNIGTKAVNWYQQLPGTAPKLVIYSNNQRPSGVPDRFSGSKSGTSASLAISGLQSEDEADYYCAAWDDSLDGYVFGTGTKVTVL
B12: BD56-094 (protein)
chain 1: EVQLVESGGDLVKPGRSLRLSCTASGFTFGDNAVSWFRQAPGKGLEWVGFIRSKPYGGTTEYAASVKGRFTISRDDSKSIAYLQMNSLKTEDTAVYYCTRDRTTYYDVLTGYSIDHHGMDVWGQGTTVTVSS
chain 2: DIVMTQTPLSLSVTPGQPASISCKSSQSLLHIDGKTYLYWFLQKPGQPPQFLIYEVSNRFSGVPDRFSGSGSGTDFTLKISRVEAHDVGLYYCMQSKQPPHTFGQGTKLEIK

These binders were tested against SARS-CoV-2 Omicron BA.1 spike pseudovirus (assay: pseudovirus neutralization IC50; higher = weaker neutralization).
Experimental: (§1)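 Single-round VSV luciferase pseudovirus mixed with antibody dilutions for 1 h and put on Huh-7 cells for about a day; IC50 from the dose curve.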

Binder	pseudovirus neutralization IC50 [µg/mL]
B1	0.743
B2	0.001
B3	0.0531
B4	0.263
B5	0.0231
B6	0.001
B7	0.0199
B8	> 10
B9	0.657
B10	> 10
B11	0.0552
B12	> 10

These binders were tested against SARS-CoV-2 Omicron BA.2 spike pseudovirus in the same assay as above.
Experimental: as §1

Binder	pseudovirus neutralization IC50 [µg/mL]
B1	1.6
B2	0.000805
B3	0.0543
B4	0.206
B5	0.0178
B6	0.000642
B7	0.0164
B8	> 10
B9	0.563
B10	> 10
B11	0.0799
B12	> 10

What follows are binders tested against SARS-CoV-2 Omicron BA.2.75 spike pseudovirus in the same assay as above.
Experimental: as §1

Binder	pseudovirus neutralization IC50 [µg/mL]
B1	1.57
B2	0.000519
B3	0.0578
B4	0.173
B5	0.0141
B6	0.000905
B7	0.0174
B8	> 10
B9	0.554
B10	> 10
B11	0.0474
B12	> 10

The binders below were run against SARS-CoV-2 Omicron BA.5 spike pseudovirus in the same assay as above.
Experimental: as §1

Binder	pseudovirus neutralization IC50 [µg/mL]
B1	1.71
B2	0.874
B3	4.81
B4	> 10
B5	0.0447
B6	4.64
B7	> 10
B8	> 10
B9	> 10
B10	> 10
B11	> 10
B12	> 10

What follows are binders tested against SARS-CoV-2 Omicron BQ.1.1 spike pseudovirus in the same assay as above.
Experimental: as §1

Binder	pseudovirus neutralization IC50 [µg/mL]
B1	3.04
B2	0.809
B3	> 10
B4	> 10
B5	> 10
B6	> 10
B7	> 10
B8	> 10
B9	> 10
B10	> 10
B11	> 10
B12	> 10

Each binder was assayed against SARS-CoV-2 Omicron XBB spike pseudovirus in the same assay as above.
Experimental: as §1

Binder	pseudovirus neutralization IC50 [µg/mL]
B1	2.45
B2	9.19
B3	> 10
B4	> 10
B5	> 10
B6	0.0119
B7	> 10
B8	> 10
B9	> 10
B10	> 10
B11	4.62
B12	> 10

What follows are binders tested against SARS-CoV-2 early D614G spike pseudovirus in the same assay as above.
Experimental: as §1

Binder	pseudovirus neutralization IC50 [µg/mL]
B1	0.0847
B2	0.001
B3	0.0163
B4	0.0513
B5	0.0225
B6	0.001
B7	0.00656
B8	> 10
B9	0.409
B10	> 10
B11	0.0294
B12	> 10
